# Where two headings read alike, the source gives them in different places.
# By UniProt entry, the sequences of proteins in these tests, tags left out.
# UniProt Q8T6T2, whole entry: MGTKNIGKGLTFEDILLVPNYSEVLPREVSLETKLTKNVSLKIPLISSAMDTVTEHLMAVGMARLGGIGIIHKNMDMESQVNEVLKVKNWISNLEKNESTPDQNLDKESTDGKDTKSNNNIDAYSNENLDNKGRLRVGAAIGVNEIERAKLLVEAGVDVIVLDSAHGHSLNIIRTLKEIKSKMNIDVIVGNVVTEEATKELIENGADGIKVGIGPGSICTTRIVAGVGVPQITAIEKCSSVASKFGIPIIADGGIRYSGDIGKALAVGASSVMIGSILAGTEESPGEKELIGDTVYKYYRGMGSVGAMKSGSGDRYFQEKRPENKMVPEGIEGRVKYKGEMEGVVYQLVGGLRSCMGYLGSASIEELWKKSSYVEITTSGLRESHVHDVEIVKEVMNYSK
# Legend:
# CpIMPDH [1] = biological target: T1, CpIMPDH (Cryptosporidium parvum, UniProt Q8T6T2); conditions: cited from earlier work
# CpIMPDH [2] = biological target: T1, CpIMPDH; experiment: Inhibition of CpIMPDH; conditions: read-out: CpIMPDH Kiapp; S8 Table; no reference mark; Q77 single determination
# BaIMPDH [3] = biological target: T2, BaIMPDH (Bacillus anthracis, UniProt A0A6L8P2U9); experiment: Inhibition of BaIMPDH; type: biochemical
# BaIMPDH [4] = biological target: T2, BaIMPDH; conditions: cited from earlier work
# MtbIMPDH2ΔCBS = MtbIMPDH2ΔCBS (Mycobacterium tuberculosis, UniProt P9WKI7, DEL126-250/R252G); experiment: Inhibition of MtbIMPDH2ΔCBS (Ki,app); type: biochemical; conditions: read-out: K i,app; IMP 0.5 mM, NAD+ […]; average and SD of three independent determinations unless noted (P32 n = 1; Q22, Q36 n = 2)
# B. anthracis [5] = experiment: Antibacterial activity against B. anthracis (MIC); type: cell-based, Bacillus anthracis; conditions: comparison of MIC, S8 Table
# B. anthracis [6] = conditions: S8 Table; cited from earlier work
# [7] = read-out: Ki,app BaIMPDH, S5 Table, no reference mark
# [8] = read-out: Ki,app BaIMPDH, S2 Table, footnote b
# [9] = read-out: CpIMPDH Kiapp, S8 Table, footnote c
# [10] = read-out: B. anthracis Ki,app, S8 Table, footnote c
# [11] = read-out: Ki,app BaIMPDH, S4 Table, footnote b
smiles,measurement,setting,value
CC(Oc1cccc2ccccc12)C(=O)Nc1ccc(Cl)cc1 (centres unmarked),Ki,CpIMPDH [1],1000 nM
C[C@H](Oc1cccc(Cl)c1Cl)C(=O)Nc1ccc2oc(-c3ccncc3)nc2c1,Ki,CpIMPDH [2],1.2 nM
same,M. tuberculosis MIC,Mtb strain H37Rv,9.4 µM
same,MIC in 7H9 media + Gua,Mtb strain H37Rv,28 ± 9 µM
same,MIC in 7H9 media - Gua,Mtb strain H37Rv,15.8 ± 5.5 µM
same,MIC in GAST media + Gua,Mtb strain H37Rv,37 µM
same,MIC in GAST media - Gua,Mtb strain H37Rv,9.4 ± 3.0 µM
same,Ki,"BaIMPDH [3]; read-out: B. anthracis Ki,app, S8 Table, no reference mark",10 nM
COc1ccc(NC(=O)Cc2n[nH]c(=O)c3ccccc23)cc1,Ki,CpIMPDH [1],1000 nM
C[C@H](Oc1cccc(Cl)c1Cl)C(=O)Nc1ccc2oc(-c3nccs3)nc2c1,antitubercular activity (active / inactive),Mtb strain H37Rv,inactive
C=C(C)c1cccc(C(C)(C)NC(=O)N(C)c2ccc(Cl)cc2)c1,Ki,BaIMPDH [3]; [7],1500 nM
O=C(Cc1n[nH]c(=O)c2ccccc12)Nc1ccc(Cl)c(Cl)c1,Ki,CpIMPDH [1],55 nM
same,Ki,"BaIMPDH [3]; read-out: Ki,app BaIMPDH, S4 Table, no reference mark, footnote c = single determination (D50 unmarked)",280 nM
C=C(C)c1cccc(C(C)(C)NC(=O)Nc2ccc3[nH]c(=O)[nH]c3c2)c1,Ki,BaIMPDH [3]; [7],3000 nM
C[C@@H](Oc1ccnc2ccccc12)c1cn(-c2ccc(Cl)c(Cl)c2)nn1,Ki,CpIMPDH [1],9 nM
same,Ki,BaIMPDH [4]; [8],20 nM
Clc1ccc(-n2cc(COc3ccnc4ccccc34)nn2)cc1,Ki,CpIMPDH [1],400 nM
same,Ki,BaIMPDH [4]; [8],800 nM
CC(Oc1cccc2ccccc12)c1cn(-c2ccc(Cl)cc2)nn1 (centres unmarked),Ki,CpIMPDH [1],130 nM
same,Ki,BaIMPDH [4]; [8],260 nM
COc1ccccc1NC(=O)Cc1n[nH]c(=O)c2ccccc12,Ki,CpIMPDH [1],> 5000 nM
CCN(CC)C(=O)c1cc(NC(=O)NC(C)(C)c2cccc(C(C)=NO)c2)ccc1Cl,Ki,CpIMPDH [1]; [9],25 nM
same,Ki,MtbIMPDH2ΔCBS,35 nM
same,M. tuberculosis MIC,Mtb strain H37Rv,14.2 µM
same,MIC in 7H9 media + Gua,Mtb strain H37Rv,63 ± 13 µM
same,MIC in 7H9 media - Gua,Mtb strain H37Rv,43.5 ± 6.0 µM
same,MIC in GAST media + Gua,Mtb strain H37Rv,>50 µM
same,MIC in GAST media - Gua,Mtb strain H37Rv,14.2 ± 5.0 µM
same,fold more effective against B. anthracis than against Mtb,B. anthracis [5],15-28 fold
same,B. anthracis MIC,B. anthracis [6],0.5 µM
same,Ki,BaIMPDH [4]; [10],40 nM
O=C(Cc1n[nH]c(=O)c2ccccc12)Nc1ccc(Cl)cc1,Ki,CpIMPDH [1],230 nM
same,Ki,BaIMPDH [4]; [11],300 nM
C[C@@H](Oc1cncc2ccccc12)c1cn(-c2ccc(Cl)cc2)nn1,Ki,CpIMPDH [1],9 nM
same,Ki,BaIMPDH [4]; [8],15 nM
CC(Oc1ccnc2ccccc12)c1cn(-c2ccc(C#N)c(Cl)c2)nn1 (centres unmarked),Ki,CpIMPDH [1],40 nM
same,Ki,"BaIMPDH [3]; read-out: Ki,app BaIMPDH, S2 Table, single determination",400 nM
CC(=NO)c1cccc(C(C)(C)NC(=O)Nc2ccc(Cl)c(C(=O)N(C)C)c2)c1,Ki,CpIMPDH [1]; [9],4.2 nM
same,Ki,MtbIMPDH2ΔCBS,13 nM
same,M. tuberculosis MIC,Mtb strain H37Rv,2.9 µM
same,MIC in 7H9 media + Gua,Mtb strain H37Rv,19 ± 6 µM
same,MIC in 7H9 media - Gua,Mtb strain H37Rv,15.7 ± 5.5 µM
same,MIC in GAST media + Gua,Mtb strain H37Rv,≥40 µM
same,MIC in GAST media - Gua,Mtb strain H37Rv,2.9 ± 0.4 µM
same,B. anthracis MIC,B. anthracis [6],23 µM
same,Ki,BaIMPDH [4]; [10],40 nM
CC(=NO)c1cccc(C(C)(C)NC(=O)Nc2ccc(Cl)c(C(N)=O)c2)c1,Ki,"CpIMPDH [1]; read-out: CpIMPDH Kiapp, S8 Table, footnote a",5 nM
same,Ki,MtbIMPDH2ΔCBS,158 nM
same,M. tuberculosis MIC,Mtb strain H37Rv,11.4 µM
same,MIC in 7H9 media + Gua,Mtb strain H37Rv,≥38 µM
same,MIC in 7H9 media - Gua,Mtb strain H37Rv,27.2 ± 15.7 µM
same,MIC in GAST media + Gua,Mtb strain H37Rv,≥40 µM
same,MIC in GAST media - Gua,Mtb strain H37Rv,11.4 ± 5.3 µM
same,B. anthracis MIC,B. anthracis [6],25 µM
O=C(Cc1n[nH]c(=O)c2ccccc12)Nc1ccc(Br)cc1,Ki,CpIMPDH [1],130 nM
same,Ki,BaIMPDH [4]; [11],80 nM
C[C@@H](Oc1ccnc2ccccc12)c1cn(-c2ccc(C#N)c(Cl)c2)nn1,Ki,CpIMPDH [1],31 nM
same,Ki,BaIMPDH [4]; [8],340 nM
C[C@@H](Oc1cccc2c1ccc[n+]2[O-])c1cn(-c2ccc(Cl)cc2)nn1,Ki,CpIMPDH [1],24 nM
same,Ki,BaIMPDH [4]; [8],40 nM
CC(Oc1cc[n+]([O-])c2ccccc12)c1cn(-c2ccc(Cl)cc2)nn1 (centres unmarked),Ki,CpIMPDH [1],30 nM
CC(Oc1cccc2c1ccc[n+]2[O-])c1cn(-c2ccc(Cl)cc2)nn1 (centres unmarked),Ki,CpIMPDH [1],44 nM
same,Ki,BaIMPDH [4]; [8],90 nM
C[C@H](Oc1ccnc2ccccc12)c1cn(-c2ccc(C#N)c(Cl)c2)nn1,Ki,CpIMPDH [1],60 nM
same,Ki,BaIMPDH [4]; [8],3700 nM
CC(Oc1cccc2ccccc12)C(=O)Nc1ccc(C(F)(F)F)cc1 (centres unmarked),Ki,CpIMPDH [1],1500 nM
same,Ki,"BaIMPDH [4]; read-out: Ki,app BaIMPDH, S1 Table, column head footnote c, A68 single determination",650 nM
O=C(Cn1c(-c2cscn2)nc2ccccc21)Nc1ccc2ccccc2c1,Ki,"BaIMPDH [4]; read-out: Ki,app BaIMPDH, S3 Table, BaIMPDH data from ref 37",100 nM

# Reference: paper PMC4594927 (PLoS ONE, 2015)
